Screening data, single-dose tests

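Phenotypic screen: M. tuberculosis growth, glucose 7H9 medium, 3 days; the read-out is not stated. Compounds at 500 µM. The record gives no direction; compounds that gave an IC50 in retests scored well above the rest, so higher reads as more growth inhibition. Of about 18,000 compounds tested this way, about 1,400 (7.9%) reached 50% or more in at least one test.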

The filed quantity is “Percent Effect” (%).
The record does not define 0% and 100%; most values in the screen are far below 50% and negative numbers occur (in some assays of this library far below -100).
Many other results are left out here, so strong results are more common than in the screen.

With Cc1nc(C)n(C(C)CC(=O)Nc2cccnc2)n1 (stereo unspecified) the screen gave -0.7261%. With CNC(=O)c1ccc(C)c(NC(=O)C2=CSCCO2)c1 the screen gave 5.955%. Result for CC(c1cccs1)n1nccc1N (stereo unspecified) was 9.581%. Result for Cc1nc(CN)cc(N2CCC(N3CCCC3)CC2)n1 was 38.98%.

CC(CO)(CO)NC(=O)c1cnc(-c2cccs2)s1 gave 50.21%. For O=C(Cn1cncn1)Nc1ccc(I)cn1 the result was -6.199%. COc1ccccc1C(C)N(C)S(C)(=O)=O (stereo unspecified) read 28.41%. Result for CC(CN1CCN(c2ccccn2)CC1)NS(C)(=O)=O (stereo unspecified) was 16.39%.

Result for CCCn1nnnc1NCc1ccc2c(c1)OCO2 was 45.92%. With CC[S+]([O-])CC(=O)NCCc1nc2c(s1)CCCC2 (stereo unspecified) the screen gave 12.92%. With CC(C)(C)OC(=O)N1CCN(c2ccnc(N)c2)CC1 the screen gave 59.42%. O=C(NCc1cc(Br)cs1)N1CCC(O)CC1 read 34.76%.

Cc1ccc(NC(=O)CN2CCN(C)CC2)c(Br)c1 gave 0.1307%. Result for Nc1nnc(CC(=O)N2CCCC2)[nH]1 was 13.17%. With CN(C(=O)c1ccc(Cl)cc1)c1nncs1 the screen gave -11.05%. Cc1cncc(NS(=O)(=O)CCc2ccccc2)c1 read 59.72%.

N#Cc1ccc(OCCN2CCCS2(=O)=O)cc1 read 2.883%. Result for Cc1nn(CCO)c(NCc2ccc(F)cc2)c1C was 33.81%. Result for c1cnc2nc(N3CCNCC3)oc2c1 was -5.318%. With O=C(N[C@H]1C[C@@H]2OCC[C@H]12)c1ccc2[nH]nnc2c1 the screen gave 4.223%.

For COc1ccc(Br)c(CN)c1 the result was 62.96%. Nc1cc(-c2cccnc2)on1 gave 88.65%. CC(C)C(=O)NCCNC(=O)C(C)(C)C gave 3.386%. With CC(C)(C)C(=O)CCN1CCCCC1 the screen gave 100.1%.

Result for Cc1c[nH]c(CN(C)C(=O)c2cc(C(F)F)n[nH]2)n1 was 22.77%. CC(C)(C)OC(=O)N1CCC(n2ccc(N)n2)C1 (stereo unspecified) read 9.841%. For COCC(=O)NCC(c1ccsc1)N(C)C (stereo unspecified) the result was 6.673%. COc1ccc(C(O)CNC2CCSCC2)cc1 (stereo unspecified) gave 15.69%.

COCc1nc(C)cc(N(C)Cc2ccc(N)nc2)n1 read 28.16%. Cc1ccc(C(N)CN2CCOCC2)cc1 (stereo unspecified) gave 73.72%. Result for NC(=O)c1ccsc1NC(=O)CCN1CCCCC1 was 53.99%. Result for CC[C@H]1COCCN1C(=O)c1ncc(F)cc1F was 4.699%.

With CC(C)(CN)C1(O)CCOC1 (stereo unspecified) the screen gave 7.363%. For NC(=O)CN1CCC(NC(=O)c2csc(Br)c2)CC1 the result was 36.1%. For COCc1cc(=O)[nH]c(C2(N)CCCC2)n1 the result was 10.23%. With COc1ccc(OCCCC(=O)NCCN(C)C)cc1 the screen gave 9.933%.

For O=C(NCCSCCCO)c1cccc2cc[nH]c12 the result was -6.146%. Cc1noc(CN2C[C@H](C(C)C)[C@@H](N)C2)n1 gave -0.4656%. COC(=O)Nc1ccc(S(=O)(=O)NC2CCNC2)cc1 (stereo unspecified) gave 16.91%. CCCC(C#N)NC(=O)c1cnn(C)c1 (stereo unspecified) gave 8.452%.

For COC(=O)c1ccc(=O)n(CC(=O)NCCC(C)C)c1 the result was -4.805%. CC(C)Sc1ccccc1NS(=O)(=O)N(C)C gave 65.87%. With CC(C)C(NC(=O)c1ccco1)C(=O)Nc1nccs1 (stereo unspecified) the screen gave 35.48%. For CN(CC(N)=O)CC(=O)N(C)Cc1cc(Br)cs1 the result was 17.49%.

With CN1CCN(c2cc(C3CC(N)C3)nc(N)n2)CC1 (stereo unspecified) the screen gave 7.789%. NCCc1nc(-c2cccc(Cl)c2)no1 gave 65.4%. CN(CC(N)=O)C(=O)c1csc(-c2ccc(F)cc2)n1 gave -6.58%. Cc1c(Br)c(C(=O)NC(C)C)nn1C gave 24.52%.

For CC(C)n1cc(Br)cc1C(=O)NC1=NCCS1 the result was 68.02%.

The last 4 entries again:

compound,percent effect
NCCc1nc(-c2cccc(Cl)c2)no1,65.4
CN(CC(N)=O)C(=O)c1csc(-c2ccc(F)cc2)n1,-6.58
Cc1c(Br)c(C(=O)NC(C)C)nn1C,24.52
CC(C)n1cc(Br)cc1C(=O)NC1=NCCS1,68.02

Source: ChEMBL document CHEMBL3988442, “University of Dundee, Small-Polar-MMV Screening Library” (2021).